The record followed here is publication PMC9982066 (PNAS Nexus, 2023).

The nature of this data set: general procedure: Fmoc solid-phase peptide synthesis; Rink amide resin LS (100–200 mesh, 0.43 mmol/g); HATU. The conditions noted are these: whole synthesis, scale of the general procedure 50–100 mg scale of the general procedure, bicyclic, sequence written open.

As to “TMA-Tyr-Pip-glu-Asp-nal-Gly-leu-Dap-4-ClPhe-nal-arg-Arg-arg-Arg-Dap”, the outcome is “The synthesis of peptide B7-131-6 failed”.
